Results of unrelated studies side by side (data: NIAID ChemDB).

Common to all: whole-cell or culture tests

An empty or dashed field is not shown. Lines come from different laboratories, so protocols vary. Percent inhibition refers to the dose given; in toxicity tests it is the harm to the cells. a–b is a range or a potency band. MIC50, MIC90 and the like: level of inhibition, or share of isolates inhibited. ECn: concentration that inhibits the pathogen or its effect by n%. Zones are inhibition diameters on agar.

smiles	species	cells	method	mutations	endpoint	tested at	conditions	strain or isolate	value
Cc1cc(NS(=O)(=O)c2ccc(N)cc2)no1	Pneumocystis carinii				inhibition	100 µM	5 d		9%
O[C@H](c1cc(C(F)(F)F)nc2c(C(F)(F)F)cccc12)[C@@H]1CCCCN1	Plasmodium falciparum		SYBR Green / fluorescence	Multidrug-resistant	EC50			Dd2 (EF1)	0.0146 µM
Cc1ccc(O)c(Cn2c(NC3CCN(CCN)CC3)nc3c(C)cccc32)n1	Respiratory syncytial virus	HEP-2			EC50			A2	0.0021 µM
O=c1[nH]cnc2c1ncn2[C@H]1CC[C@@H](CO)O1	HIV-2	PBMC	ELISA		EC50			1010	5.24 µM
[Al]#[P]	Aspergillus ochraceus		agar diffusion		zone	1 mg/mL			53.9 mm
Nc1ccn(C[C@@H](CO)OCP(=O)(O)O)c(=O)n1	Cytomegalovirus				MIC			DAVIS	1.3 µM
Nc1nc2c(ncn2CCOCP(=O)(O)O)c(=O)[nH]1	Cytomegalovirus	HEL	plaque count		EC50			AD169	0.1 µg/mL
C#CC[C@@H](C(=O)N[C@H](/C=C/C(=O)OCC)C[C@@H]1CCNC1=O)n1cccc(NC(=O)c2cc(C)on2)c1=O	Rhinovirus	H1-HELA	cytopathic effect / XTT		EC50			Serotype 89	0.011 µM
Nc1ncnc2c1ncn2CCOCP(=O)(O)O	Herpes simplex virus 1	HeLa	virus yield		EC90			KOS	80 µM
OC[C@H]1O[C@H](OC[C@H]2O[C@H](O[C@]3(CO)O[C@H](CO)[C@@H](O)[C@@H]3O)[C@H](O)[C@@H](O)[C@@H]2O)[C@H](O)[C@@H](O)[C@H]1O	Herpes simplex virus 1	HeLa	cytopathic effect		EC50			KOS	>200 µg/mL
NC1CCCCCCC1	Influenza B virus				MIC			B/University of Maryland/1/71	>25 µg/mL
C1CCC(C[C@@H]2CN=C3N2C[C@@H](C2CCCCC2)N3CCC23CC4CC(CC(C4)C2)C3)CC1	Cryptococcus neoformans				EC50			ATCC 32045	3.7 µg/mL
CC(=O)NC[C@H]1CN(c2ccc(N3CCN(C(=O)CO)CC3)c(F)c2)C(=O)O1	Staphylococcus aureus				MIC90			Oxacillin-susceptible	1–4 µg/mL
Nc1ccn([C@@H]2C=C(CO)[C@@H](O)[C@@H]2O)c(=O)n1	Measles virus	VERO	plaque count		EC50			Niigata-1	0.049 µg/mL
C1CCC([C@H]2CN3C(=NC[C@H]3C3CCCCC3)N2CCC23CC4CC(CC(C4)C2)C3)CC1	Cryptococcus neoformans				EC50			ATCC 32045	2.4 µg/mL
CCCCCCCCCCCCCCCC(=O)OCC(O)COC(=O)CCCCCCCCCCCCCCC	Herpes simplex virus 1	HeLa	cytopathic effect		EC50			KOS	>200 µg/mL
NC(=O)c1[nH]nc([C@@H]2O[C@H](CO)[C@@H](O)[C@H]2O)c1O	Measles virus	VERO	plaque count		EC50			Sugiyama	0.14 µg/mL
Cc1ccnc2c1NC(=O)c1cccnc1N2C1CC1	HIV-1	MT-4		RT-M41L T215Y K103N	EC95				>3 µM
O=c1[nH]cnc2c1ncn2C[C@@H](CO)OCP(=O)(O)O	Cytomegalovirus	HEL	cytopathic effect		EC50			AD169	200 µg/mL
NC(=S)N/N=C\c1ncccc1O	Kaposi sarcoma virus	BC3	GFP / microscopy		EC50				5 µM
CO[C@H]1[C@@H](OC(=O)/C=C/C=C/C=C/C=C/C(=O)O)CC[C@@]2(CO2)[C@@H]1[C@@]1(C)O[C@@H]1CC=C(C)C	Encephalitozoon intestinalis	RK-13			inhibition	1 µg/mL			86.9%
CCOC(OCC)C(CC)[Se]c1ccccc1[N+](=O)[O-]	Kaposi sarcoma virus	BC3	GFP / microscopy		EC50				1 µM
CCCn1[se]c2ncccc2c1=O	Vesicular stomatitis virus				MIC				400 µg/mL
CO[C@H]1/C=C/O[C@@]2(C)Oc3c(C)c(O)c4c(O)c(c5c(c4c3C2=O)NC2(CCN(CC(C)C)CC2)N=5)=NC(=O)/C(C)=C\C=C\[C@H](C)[C@H](O)[C@@H](C)[C@@H](O)[C@@H](C)[C@H](OC(C)=O)[C@@H]1C	Mycobacterium avium complex				MBC			1854-4	32 µg/mL
CCOC(=O)Nc1cc(NC(C)/C(=N/O)c2ccc(O)cc2)c([N+](=O)[O-])c(N)n1	Encephalitozoon intestinalis	RK-13			inhibition	1 µg/mL			26.5%
CC(C)(C)C1CCC(CN2C3=NC[C@H](CC4CCCCC4)N3C[C@@H]2CC2CCCCC2)CC1	Cryptococcus neoformans				EC50			ATCC 32045	2.2 µg/mL
C/C(=C\Cc1ccccc1)CCC[C@H](C)C[C@]1(C)C[C@@]2(C)OC(=O)C[C@H]2OO1	Toxoplasma gondii	HFF			inhibition	10 µM		RH	72%
Nc1ccn([C@@H]2C[C@@H](O)[C@H](CO)O2)c(=O)n1	Measles virus	CV-1			EC50				>100 µM
O=c1cnn([C@@H]2O[C@H](CO)[C@@H](O)[C@H]2O)c(=O)[nH]1	West Nile virus	VERO	cytopathic effect		EC50			New York isolates	0.9 µg/mL
CC1NC(=O)C(C)NC(=O)C2CCCN2C(=O)C(CCCCCC(=O)CCO)NC1=O	Toxoplasma gondii				MIC				>1 µg/mL
CC(C)(C)C1CCC(CN2C3=NC[C@@H](CC4CCCCC4)N3C[C@@H]2C2CCCCC2)CC1	Cryptococcus neoformans				EC50			ATCC 32045	2.1 µg/mL
CC1CN(Cn2c(O)c(N=NC(N)=S)c3ccccc32)CCN1Cn1c(O)c(N=NC(N)=S)c2ccccc21	Herpes simplex virus 1	HeLa	cytopathic effect		EC50			KOS	>200 µg/mL
NC12CC3CC(CC(C3)C1)C2	Measles virus	VERO	plaque count		EC50			Niigata-1	85 µg/mL
COc1c(N2CCNC(C)C2)c(F)cc2c(=O)c(C(=O)O)cn(C3CC3)c12	Vittaforma corneae				MIC50				73 µM
Nc1ncnc2c1ncn2C[C@@H](CO)OCP(=O)(O)O	Herpes simplex virus 1	HeLa	virus yield		EC90			KOS	50 µM
CO[C@@H]1[C@@H](OC(N)=O)[C@@H](O)[C@H](Oc2ccc3c(O)c(NC(=O)c4ccc(O)c(CC=C(C)C)c4)c(=O)oc3c2C)OC1(C)C	Vittaforma corneae				MIC50				>100 µM
CCCCCCCCCCCCCCCC[N+](C)(C)CCl	Kaposi sarcoma virus	BC3	GFP / microscopy		EC50				0.5 µM
COc1ccc2cc3[n+](cc2c1OC)CCc1cc2c(cc1-3)OCO2	Encephalitozoon intestinalis	RK-13			inhibition	0.001 µg/mL			0%
O=c1[nH][se]c2ccccc12	Vesicular stomatitis virus				MIC				600 µg/mL
Nc1cc2[nH]cnc2c(=O)[nH]1	Measles virus	VERO	plaque count		EC50			Yamagata-1	1.18 µg/mL
CCn1cc(C(=O)O)c(=O)c2cc(F)c(N3CCNCC3)cc21	Vittaforma corneae				MIC50				24 µM
C=C1CCOC2(C(O)C(C)(O)CO)NC(=O)C1(O)NC2=O	Herpes simplex virus 1	HeLa	cytopathic effect		EC50			KOS	>200 µg/mL
C#C[C@]1(CO)O[C@@H](n2cnc3c(N)nc(F)nc32)CC1O	HIV-2	MAGIC-5A	β-galactosidase / absorbance	Q151M	EC50			ROD9	0.00038 µM
COC(=O)[C@H](C)NP(=O)(OC[C@H]1C/C1=C/n1cnc2c(OC)nc(N)nc21)Oc1ccccc1	Mouse cytomegalovirus	MEF	plaque count		EC50				0.24 µM
O=c1[nH]cnc2c1ncn2CCOCP(=O)(O)O	Cytomegalovirus	HEL	cytopathic effect		EC50			AD169	>400 µg/mL
CCCCCCCN(CC1=C(O)c2ccccc2C(=O)C1=O)Cc1ccccc1	Toxoplasma gondii				EC50			ATO	1.1 µM
CCn1cc(C(=O)O)c(=O)c2cc(F)c(N3CCNCC3)nc21	Vittaforma corneae				MIC50				60 µM
CC[C@H]1O[C@@H](n2cc(F)c(=O)[nH]c2=O)[C@H](O)[C@@H]1O	Measles virus	VERO	plaque count		EC50			Niigata-1	>500 µg/mL
C[C@@H]1CC[C@H]2[C@@H](C)C(=O)O[C@@H]3OC4(C)CC[C@@H]1[C@]32OO4	Plasmodium falciparum		SYBR Green / fluorescence	KAE678-resistant pfatp4 I203M/I263V	EC50			KAE678R-3	0.0181 µM
O=c1c2cccnc2[se]n1N(c1ccccc1)c1cc(Cl)ccn1	Vesicular stomatitis virus				MIC				>1000 µg/mL
CC[C@]12CCCN3CCc4c(n(c5ccccc45)[C@@](O)(C(=O)OC)C1)[C@@H]32	Herpes simplex virus 1	HeLa	cytopathic effect		EC50			KOS	>200 µg/mL
CO[C@@H]1C[C@@H](C[C@H]2CC[C@H](C)[C@H]([C@@H](C)C(=O)O)O2)O[C@]2(O[C@@](C)([C@H]3CC[C@@](C)(C4O[C@@H]([C@H]5O[C@@](O)(CO)[C@H](C)C[C@@H]5C)C[C@@H]4C)O3)C[C@H]2C)[C@@H]1C	Kaposi sarcoma virus	BC3	GFP / microscopy		EC50				<0.05 µM
CCC(=O)CCCCC[C@@H]1NC(=O)[C@H]2CCCCN2C(=O)[C@H](C(C)CC)NC(=O)[C@H](Cc2c[nH]c3ccccc23)NC1=O	Toxoplasma gondii				MIC				0.015 µg/mL
COc1ccc(C)c(NCc2cnc3nc(N)nc(N)c3c2C)c1	Encephalitozoon intestinalis	RK-13			inhibition	0.1 µg/mL			69.8%
C#Cc1c(C(N)=O)ncn1[C@@H]1O[C@H](CO)[C@@H](O)[C@H]1O	Parainfluenza virus	VERO	plaque count		EC50			TYPE 3/HA-1 C243	0.58 µg/mL
COC(=O)[C@@]12OC[C@]34[C@H]([C@@H](O)[C@@H]1O)[C@@]1(C)CC(=O)C(O)=C(C)[C@@H]1C[C@H]3OC(=O)[C@H](OC(=O)C=C(C)C)[C@@H]24	Kaposi sarcoma virus	BC3	GFP / microscopy		EC50				<0.05 µM
C[C@H]1COc2c(N3CCN(C)CC3)c(F)cc3c(=O)c(C(=O)O)cn1c23	Streptococcus pneumoniae				MIC			1L1 (PARC mutation SER79PHE)	2 µg/mL
NC12CC3CC(CC(C3)C1)C2	Influenza A virus	MDCK	neutral red / visual reading		EC50			Influenza A/Sydney/05/97 (H3N2)	0.45 µM
O=c1cnn([C@@H]2O[C@H](CO)[C@@H](O)[C@H]2O)c(=O)[nH]1	Measles virus	VERO	plaque count		EC50			Kitaken-1	0.78 µg/mL
COc1nc(N)nc2c1ncn2C=C1CC1CO	Mouse cytomegalovirus	MEF	plaque count		EC50				0.4 µM
O=c1ccn(CC(CO)OCP(=O)(O)O)c(=O)[nH]1	Cytomegalovirus	HEL	plaque count		EC50			DAVIS	25 µg/mL
CC1(C)[C@@H](O[C@H]2O[C@H](C(=O)O)[C@@H](O)[C@H](O)[C@H]2O[C@@H]2O[C@H](C(=O)O)[C@@H](O)[C@H](O)[C@H]2O)CC[C@]2(C)[C@H]3C(=O)C=C4[C@@H]5C[C@@](C)(C(=O)O)CC[C@]5(C)CC[C@@]4(C)[C@]3(C)CC[C@@H]12	Measles virus	VERO	plaque count		EC50			Kitaken-1	680 µg/mL
NC(=O)c1ncn([C@@H]2O[C@H](CO)[C@@H](O)[C@H]2O)n1	Pichinde virus	VERO 76	plaque count		EC50				1–3.2 µg/mL
Nc1ccc(S(=O)(=O)Nc2cc(F)cc(F)c2)cc1	Pneumocystis carinii				inhibition	100 µM	5 d		33%

A second listing of 8 rows from above:

smiles,species,cells,method,mutations,endpoint,tested at,conditions,strain or isolate,value
CC(C)(C)C1CCC(CN2C3=NC[C@H](CC4CCCCC4)N3C[C@@H]2CC2CCCCC2)CC1,Cryptococcus neoformans,,,,EC50,,,ATCC 32045,2.2 µg/mL
NC1CCCCCCC1,Influenza B virus,,,,MIC,,,B/University of Maryland/1/71,>25 µg/mL
CO[C@H]1[C@@H](OC(=O)/C=C/C=C/C=C/C=C/C(=O)O)CC[C@@]2(CO2)[C@@H]1[C@@]1(C)O[C@@H]1CC=C(C)C,Encephalitozoon intestinalis,RK-13,,,inhibition,1 µg/mL,,,86.9%
COc1ccc(C)c(NCc2cnc3nc(N)nc(N)c3c2C)c1,Encephalitozoon intestinalis,RK-13,,,inhibition,0.1 µg/mL,,,69.8%
CO[C@@H]1[C@@H](OC(N)=O)[C@@H](O)[C@H](Oc2ccc3c(O)c(NC(=O)c4ccc(O)c(CC=C(C)C)c4)c(=O)oc3c2C)OC1(C)C,Vittaforma corneae,,,,MIC50,,,,>100 µM
NC(=O)c1ncn([C@@H]2O[C@H](CO)[C@@H](O)[C@H]2O)n1,Pichinde virus,VERO 76,plaque count,,EC50,,,,1–3.2 µg/mL
CCC(=O)CCCCC[C@@H]1NC(=O)[C@H]2CCCCN2C(=O)[C@H](C(C)CC)NC(=O)[C@H](Cc2c[nH]c3ccccc23)NC1=O,Toxoplasma gondii,,,,MIC,,,,0.015 µg/mL
CC1CN(Cn2c(O)c(N=NC(N)=S)c3ccccc32)CCN1Cn1c(O)c(N=NC(N)=S)c2ccccc21,Herpes simplex virus 1,HeLa,cytopathic effect,,EC50,,,KOS,>200 µg/mL